According to patent publication US20140286960A1 (CANGENE, published 2014):

Biological target: Staphylococcus aureus alpha-hemolysin (Staphylococcus aureus, UniProt P09616 27-319)
Experiment: cell-based or functional assay

B1: CAN24G4 monoclonal antibody (antibody, V domains shown)
VH: EVHLQQSGAELVKPGASVRLSCTGSGLDIKDTYIHWVKKRPEQGLEWIGRIDPANGITKYDPKFQGKATVTADTSSNTAYLQFSSLTSEDSAVYYCSSEYYPYPMDYWGQGTSVTVSS
VL: DIKMTQPPSSMYASLGERVTVTCKASQDISSFLTWFQQKPGKSPKILIYRANRVVDGVPSRFSGSGSGHDYSLTISSLESEDMGIYYCLQYDEFPWTFGGGTKLEIK
- NT50 relative to the sheep anti-alpha hemolysin pAb (Toxin Tech): 13 fold
